According to US20140106982A1:

biological target: mouse monoclonal antibody FB 11; test: VLP library affinity selection on FB 11, 12 clones sequenced

Row | Substance | copies among sequenced affinity-selected clones
1 | DYMPDTGG (peptide) | 1 copy
2 | GACLKHT (peptide) | 1 copy
3 | GACLRHT (peptide) | 7 copies
4 | QGDHLQ (peptide) | 1 copy
5 | RRSPGLP (peptide) | 1 copy
6 | … (peptide) | 1 copy
